Measured values published in article PMC5541348.

Tested on: T1, His6-MabR (MabRMT/MabRTB)
T1 sequence (looked up, limits assumed): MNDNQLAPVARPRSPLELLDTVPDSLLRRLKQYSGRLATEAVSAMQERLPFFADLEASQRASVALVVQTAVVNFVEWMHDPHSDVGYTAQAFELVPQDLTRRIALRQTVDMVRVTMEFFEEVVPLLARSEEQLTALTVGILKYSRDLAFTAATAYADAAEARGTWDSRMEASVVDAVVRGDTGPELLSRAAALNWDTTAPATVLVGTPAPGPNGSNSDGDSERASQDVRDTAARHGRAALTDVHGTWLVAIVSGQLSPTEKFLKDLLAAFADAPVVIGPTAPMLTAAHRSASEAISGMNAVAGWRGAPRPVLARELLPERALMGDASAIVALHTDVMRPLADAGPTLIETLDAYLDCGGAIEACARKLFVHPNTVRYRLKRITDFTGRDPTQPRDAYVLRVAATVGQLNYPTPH
Test: EMSA
Details: recombinant protein, protein details: His6, label: 32P 5' end label, probe letters rebuilt from the primers and the genome

CGAACCCTGTCCGGGTGCGAGCAACGCAATCACGTGTCTAAGAGAACACTGTGAAGACGGTTTTGCGCGGTGTAACAGATTATGAACCTCGTCTTAGGTTTTTGTATATAACCAACAAAACGGGCCTGTAAGCTATGTTTTTGAGATCGTCCCGCGACCTGTTGTCTGGATCACTTTCCGTCCGACGGCGCCCCTGGTATCTTTCCGGGGCCCCTGCTGGACCCCCTCTGACCGGCGAGGGAATCTATGACACGGCATTGCTGTCGATGCTT (double strand) [PfasIIMT 272 bp probe]
binds: binding result (C16-CoA 0.1-1 uM, no effect on binding) | binding result (C18-CoA 1 uM, binding increased) | binding result (C20-CoA 0.1-1 uM, binding enhanced) | binding result (C22-CoA 0.1-1 uM, binding enhanced) | binding result

The exact form of at least one protein or probe is not confirmed. At least one verdict rests on a figure or table, not on a statement of the authors. Tags and fusion partners may be left off the protein sequences shown.
